In PubChem BioAssay AID488862 (Broad Institute, 2010):
The entries are a selection whose mix differs from that of the whole data set. Calls of active or inactive are those of the source. Cut-off read from the data, not from the text of the source: active = inhibition above about 52%; inactive = the rest.

Test: inhibition of PrP 5' UTR reporter expression (AID 488862); note: 0 = median of the neutral control wells
Conditions: cell-based PrP 5' UTR mRNA reporter, plate reader; stronger effect = higher value; concentration not given here

**Q.** With `CCC(C)N(CC(C)C)C(=S)SC(NC(C)=O)C(Cl)(Cl)Cl` (stereo not drawn) as the compound, how does the inhibition read?
**A.** inactive: -15.8%

**Q.** With `CP(=O)(Nc1ccccn1)Oc1ccc(Cl)cc1` (stereo not drawn) as the compound, how does the inhibition read?
**A.** inactive: -3.5%

**Q.** Which inhibition does the source give for `O=C(OC1CN2CCC1CC2)c1cccc([N+](=O)[O-])c1` (stereo not drawn) here?
**A.** inactive: -15.5%

**Q.** With `CCOP(C)(=S)SCC(=O)NC(C)C(=O)O` (stereo not drawn) as the compound, how does the inhibition read?
**A.** inactive: -36.5%

**Q.** Which inhibition does the source give for `CCOC(=O)c1ccc(NC(=O)C(C)(CCl)SC)cc1` (stereo not drawn) here?
**A.** inactive: -43.2%

**Q.** Which inhibition does the source give for `CCOC(=O)c1ccc(NP(C)(=O)Oc2ccc(OC)cc2)cc1` (stereo not drawn) here?
**A.** inactive: -38.4%

**Q.** Which inhibition does the source give for `CCc1ccc(OP(C)(=O)N2CCN(c3ccc([N+](=O)[O-])cc3)CC2)cc1` (stereo not drawn) here?
**A.** inactive: -10.3%

**Q.** For `CP(=O)(NC(=O)Nc1ccccc1)Oc1ccccc1` (stereo not drawn), which inhibition is on record?
**A.** inactive: -13.1%

**Q.** Which inhibition does the source give for `O=C(COc1ccccc1)OC1CN2CCC1CC2` (stereo not drawn) here?
**A.** inactive: -7.66%

**Q.** For `O=C(Nc1ccncc1[N+](=O)[O-])c1ccc([N+](=O)[O-])cc1[N+](=O)[O-]`, which inhibition is on record?
**A.** inactive: -11.2%

**Q.** For `Cc1cc(C)cc(OP(C)(=O)Nc2ccc(SC(F)(F)F)cc2)c1` (stereo not drawn), which inhibition is on record?
**A.** inactive: -19.3%

**Q.** Which inhibition does the source give for `Cc1cccc(C)c1OP(C)(=O)Nc1ccc(SC(F)(F)F)cc1` (stereo not drawn) here?
**A.** inactive: 1.66%

**Q.** For `COP1(=S)c2c(C)nn(CCC#N)c2N=C(c2ccc(F)cc2)N1C` (stereo not drawn), which inhibition is on record?
**A.** inactive: -12.9%

**Q.** With `CP(=O)(Oc1ccccc1)OC(c1ccccc1)C(F)(F)F` (stereo not drawn) as the compound, how does the inhibition read?
**A.** inactive: -26.4%

**Q.** With `Cc1cc(SC(NC=O)C(Cl)(Cl)Cl)ncn1` (stereo not drawn) as the compound, how does the inhibition read?
**A.** inactive: -1.8%

**Q.** With `COc1ccccc1OP(C)(=O)Nc1ccccc1` (stereo not drawn) as the compound, how does the inhibition read?
**A.** inactive: -12.9%

**Q.** With `CP(=O)(Nc1ccccc1Br)Oc1ccccc1` (stereo not drawn) as the compound, how does the inhibition read?
**A.** inactive: -12.2%

**Q.** With `O=[N+]([O-])c1ccc(Nc2ccc(Oc3ccc([N+](=O)[O-])cc3[N+](=O)[O-])cc2)c([N+](=O)[O-])c1` as the compound, how does the inhibition read?
**A.** inactive: -9.86%

**Q.** With `CP(=S)(Nn1cnnc1)Oc1ccccc1` (stereo not drawn) as the compound, how does the inhibition read?
**A.** inactive: -0.415%

**Q.** With `CCOC(=O)Nc1cccc([As](=O)(O)O)c1` as the compound, how does the inhibition read?
**A.** inactive: -2.73%

**Q.** With `CCCCOc1ccc(C(=O)NCC2(N3CCCCC3)CCCCC2)cc1OC` as the compound, how does the inhibition read?
**A.** inactive: -13.6%

**Q.** Which inhibition does the source give for `Cc1cc(SC(NC(=O)c2ccccc2)C(Cl)(Cl)Cl)nc(C(C)C)n1` (stereo not drawn) here?
**A.** inactive: 4.87%

**Q.** For `CCOC(=O)Nc1ccc([As](=O)(O)O)c(O)c1`, which inhibition is on record?
**A.** inactive: -23.5%

**Q.** With `CC1CCNP(=O)(N(CCCl)CCCl)O1` (stereo not drawn) as the compound, how does the inhibition read?
**A.** inactive: -24.8%

**Q.** Which inhibition does the source give for `O=C(OC1CN2CCC1CC2)c1cccc2[nH]cnc12` (stereo not drawn) here?
**A.** inactive: -2.39%

**Q.** With `CCN(CC)C(=S)SC(NC=O)C(Cl)(Cl)Cl` (stereo not drawn) as the compound, how does the inhibition read?
**A.** inactive: 12%

**Q.** With `CC(C)NC(=O)NP(=O)(Oc1ccccc1)Oc1ccccc1` as the compound, how does the inhibition read?
**A.** inactive: -22.1%

**Q.** With `COc1ccccc1OP(C)(=O)Nc1cc(Cl)ccc1C` (stereo not drawn) as the compound, how does the inhibition read?
**A.** inactive: -11.7%
